Measured values from several laboratories, pooled; numbers as filed in NIAID ChemDB.

All rows: host cell toxicity; cells: HEP-2; read-out: CC50

CCn: concentration that lowers growth or viability of the cells by n%. An empty or dashed field is not shown. Rows are shuffled and stem from different studies.

SMILES | read by | value
O=C(NC1N=C(c2ccccc2)c2ccccc2NC1=O)c1cnccn1 |  | 2 µM
CSc1nsc(-c2ccccc2)c1C(N)=O |  | 250 µg/mL
[N-]=C=Nc1nncs1 |  | >1000 µg/mL
O=C(O)c1cccc(Cn2c(=O)n(Cc3nc4ccccc4n3CCCn3cnnn3)c3ccccc32)c1 |  | >194 µM
CCCSc1nsc(-c2ccccc2)c1C(=O)O |  | 500 µg/mL
COc1ccccc1C(=O)NC1N=C(c2cccc(Cl)c2)c2ccccc2NC1=O |  | 1 µM
CN(C)CCn1c(Cn2c(=O)n(CCN(C)C)c3ccccc32)nc2ccccc21 |  | 10 µM
COc1cccc(C2(c3ccccc3)NC(NC(=O)C3CCNCC3)C(=O)Nc3ccccc32)c1 |  | 9 µM
CSc1nsc(-c2ccccc2)c1C(=O)O |  | 500 µg/mL
COc1cc(S(C)(=O)=O)ccc1C(=O)N[C@H]1N=C(c2ccccc2)c2ccccc2NC1=O |  | 0.6 µM
NC(=O)c1nc(F)c[nH]c1=O |  | >1000 µg/mL
N#Cc1c(SCCCCBr)nsc1-c1ccccc1 |  | 25 µg/mL
C/C=C1\[C@H](OC2O[C@H](CO)[C@@H](O)[C@H](O)[C@H]2O)OC=C(C(=O)O)[C@H]1CC(=O)OCCc1ccc(O)cc1 |  | 375 µM
CCOC(=O)CSc1nsc(-c2ccccc2)c1C#N |  | 200 µg/mL
COc1ccccc1C(=O)NC1N=C(c2ccccc2)c2ccc(C)cc2NC1=O |  | 3 µM
CC(=O)NC[C@H]1CN(c2ccc(N3CCOCC3)c(F)c2)C(=O)O1 |  | >100 µM
C/C=C1/[C@H](O[C@@H]2O[C@H](CO)[C@@H](O)[C@H](O)[C@H]2O)OC=C(C(=O)OC)[C@H]1CC(=O)OCCc1ccc(O)c(O)c1 |  | 562.5 µM
Nc1nccc2c1ncn2[C@@H]1C[C@H](CO)[C@@H](O)[C@H]1O |  | 750 µg/mL
COc1cccc(CCC(=O)NC2N=C(c3ccccc3)c3ccccc3NC2=O)c1 |  | 5 µM
CC(C)CCn1c(Cn2c(=O)n(CCCCCN=[N+]=[N-])c3ccccc32)nc2ccccc21 |  | 90 µM
O=c1c(-c2ccc(O)cc2)coc2cc(O)ccc12 |  | 2.65 µg/mL
CCC1[C@H](OC2O[C@H](CO)[C@@H](O)[C@H](O)[C@H]2O)OC=C(C(=O)O)[C@H]1CC(=O)OCCc1ccc(O)cc1 |  | 250 µM
O=C(NC1N=C(c2ccccc2)c2ccccc2NC1=O)c1c(F)cccc1F |  | 8.7 µM
N#CCSc1nsc(-c2ccccc2)c1C#N |  | 10 µg/mL
COc1cccc(C2(c3ccccc3)NC(NC(=O)C3CCCCC3)C(=O)Nc3ccccc32)c1 |  | 2 µM
COc1cc2c(cc1O)C(OC)CN1CC=C3C=C[C@H](OC)C[C@]321 | MTT | 11.5 µg/mL

For reference, 4 entries again:

SMILES	read by	value
CSc1nsc(-c2ccccc2)c1C(N)=O		250 µg/mL
COc1ccccc1C(=O)NC1N=C(c2ccccc2)c2ccc(C)cc2NC1=O		3 µM
CSc1nsc(-c2ccccc2)c1C(=O)O		500 µg/mL
CCOC(=O)CSc1nsc(-c2ccccc2)c1C#N		200 µg/mL